{
  "source": "patent US20230381142A1",
  "about": "“ANTILEISHMANIAL COMPOUNDS, COMPOSITIONS AND USE THEREOF” (TRUSTEES OF BOSTON UNIVERSITY, priority 2022, published 2023)",
  "data": [
    {"system": "L. donovani intracellular amastigotes infecting THP-1 macrophages", "experiment": "GSK intramacrophage L. donovani assay (LD AMMAC, inMac; Assay Conditions C)", "type": "cell-based, Leishmania donovani", "details": "(LD MAC EC50)/(LD AMMAC EC50)", "description": "(§1) Assay Conditions C: The intramacrophage Leishmania donovani activity assay was performed as described in Antimicrob Agents Chemother (2013) 57(7):2913-22.\n(§2) The intramacrophage Leishmania donovani activity assay (LD AMMAC) at GlaxoSmithKline was performed as described.\n(§3) Given the literature precedents described above and the apparent narrow tolerance for R^3 substitutions observed in the primary screen compounds, a thorough and methodical assessment was undertaken of tolerated groups at the three points of diversity (R^1/R^2/R^3) for the core. At this stage of the project, all analogues were assessed using a battery of assays performed in-house at GlaxoSmithKline. For antileishmanial activity, GSK's inMac assay was utilized. This assay provides two readouts of compound potency: average number of intracellular amastigotes per infected cell (AMMAC) EC50, percentage of infected cells per well (INFCELL) EC50, as well as a toxicity output derived from the number of host cells (MAC EC50). In addition, compounds were assessed for toxicity against HepG2 cells (HEPG2 EC50). Here, AMMAC EC50 values were focused on for relative potency assessments. […] It should be noted that for all compounds assessed in this project, the measured toxicity against THP-1 macrophages either equaled or exceeded that of HepG2 hepatocytes, therefore the MAC SI is used here as the more conservative estimate of therapeutic index.", "values": [
      {"smiles": "COc1ccc(N2C(=O)c3[nH]nc(CCC(C)C)c3C2c2ccc(F)cc2)cc1", "note": "(stereo not shown) [Compound 9]", "SI MAC": 12.6},
      {"smiles": "CC(C)Cc1n[nH]c2c1C(c1ccc(F)cc1)N(c1ccc(N(C)C)cc1)C2=O", "note": "(stereo not shown) [Compound 21, 5-(4-(dimethylamino)phenyl)-4-(4-fluorophenyl)-3-isobutyl-4,5-dihydropyrrolo[3,4-c]pyrazol-6(1H)-one]", "SI MAC": 39.8},
      {"smiles": "COc1ccc(N2C(=O)c3[nH]nc(CC(C)C)c3C2c2ccc(F)cc2)c(OC)c1", "note": "(stereo not shown) [Compound 43]", "SI MAC": 1.6},
      {"smiles": "COc1ccc(N2C(=O)c3[nH]nc(CC(C)C)c3C2c2ccc(Cl)cc2)cc1", "note": "(stereo not shown) [Compound 47]", "SI MAC": 4.0},
      {"smiles": "CC(C)Cc1n[nH]c2c1C(c1ccc(F)cc1)N(c1ccc(C(C)(C)C)cc1)C2=O", "note": "(stereo not shown) [Compound 25]", "SI MAC": ">5.0"},
      {"smiles": "COc1ccc(N2C(=O)c3[nH]nc(CC(C)C)c3C2c2ccccc2)cc1", "note": "(stereo not shown) [Compound 2]", "SI MAC": 9.9},
      {"smiles": "COc1ccc(N2C(=O)c3[nH]nc(CC(C)C)c3C2c2cncs2)cc1", "note": "(stereo not shown) [Compound S4]", "SI MAC": ">3.1"},
      {"smiles": "COc1ccc(N2C(=O)c3[nH]nc(CC(C)C)c3C2c2cccc(Cl)c2)cc1", "note": "(stereo not shown) [Compound 59]", "SI MAC": 5.0},
      {"smiles": "COc1ccc(N2C(=O)c3[nH]nc(CC(C)C)c3C2c2ccc(F)cc2)cn1", "note": "(stereo not shown) [Compound 31]", "SI MAC": ">5.0"},
      {"smiles": "COc1cccc(N2C(=O)c3[nH]nc(CC(C)C)c3C2c2ccc(F)cc2)c1", "note": "(stereo not shown) [Compound 30]", "SI MAC": 2.5},
      {"smiles": "CCOc1ccc(N2C(=O)c3[nH]nc(CC(C)C)c3C2c2ccc(F)cc2)cc1", "note": "(stereo not shown) [Compound 19]", "SI MAC": 12.5},
      {"smiles": "COc1ccc(CN2C(=O)c3[nH]nc(CC(C)C)c3C2c2ccc(F)cc2)cc1", "note": "(stereo not shown) [Compound 34]", "SI MAC": ">2.5"},
      {"smiles": "COc1ccc(N2C(=O)c3[nH]nc(CC(C)C)c3C2c2ccccc2Br)cc1", "note": "(stereo not shown) [Compound 56]", "SI MAC": 50.2},
      {"smiles": "COc1ccc(N2C(=O)c3[nH]nc(CC(C)C)c3C2C2CCN(Cc3ccccc3)CC2)cc1", "note": "(stereo not shown) [Compound S1]", "SI MAC": 1.3}
    ]},
    {"system": "L. donovani intracellular amastigotes infecting THP-1 macrophages", "experiment": "GSK intramacrophage L. donovani assay (LD AMMAC, inMac; Assay Conditions C)", "type": "cell-based, Leishmania donovani", "details": "THP-1 CC50 / L. donovani EC50 (THP-1)", "description": "as §1, §2, §3", "values": [
      {"smiles": "CC(C)Cc1n[nH]c2c1C(c1cccc(C(F)(F)F)c1)N(c1ccc3c(c1)OCO3)C2=O", "note": "(stereo not shown) [CMLD011139]", "SI Host cell potency/L. donovani potency": 6.3},
      {"smiles": "COc1ccccc1N1C(=O)c2[nH]nc(CC(C)C)c2C1C1CCCCC1", "note": "(stereo not shown) [CMLD011045]", "SI Host cell potency/L. donovani potency": 2.5},
      {"smiles": "CC(C)Cc1n[nH]c2c1C(C1CCCCC1)N(c1ccc(Br)cc1)C2=O", "note": "(stereo not shown) [CMLD011087]", "SI Host cell potency/L. donovani potency": 1.3},
      {"smiles": "COc1ccc(N2C(=O)c3[nH]nc(CC(C)C)c3C2c2ccc(C)s2)cc1", "note": "(stereo not shown) [CMLD011123]", "SI Host cell potency/L. donovani potency": 4.0},
      {"smiles": "C=CCn1nc2c(c1CC(C)C)C(c1ccc(F)cc1)N(c1ccc(OC)cc1)C2=O", "note": "(stereo not shown) [CMLD010984]", "SI Host cell potency/L. donovani potency": 5.0},
      {"smiles": "CC(C)Cc1n[nH]c2c1C(c1ccccc1Cl)N(c1ccc(F)cc1)C2=O", "note": "(stereo not shown) [CMLD011078]", "SI Host cell potency/L. donovani potency": 5.0}
    ]},
    {"system": "L. donovani intracellular amastigotes infecting THP-1 macrophages", "experiment": "GSK intramacrophage L. donovani assay (LD AMMAC, inMac; Assay Conditions C)", "type": "cell-based, Leishmania donovani", "details": "rows whose L. donovani EC50 is in THP-1 cells (c)", "description": "as §1, §2, §3", "values": [
      {"smiles": "CC(C)Cc1n[nH]c2c1C(c1ccc(F)cc1)N(c1ccc(OC(F)(F)F)cc1)C2=O", "note": "(stereo not shown) [CMLD010885]", "SI Host cell potency/L. donovani potency": 2.5},
      {"smiles": "CC(C)Cc1n[nH]c2c1[C@H](c1ccc(F)cc1)N(c1ccc3ncnn3c1)C2=O", "note": "[CMLD010993]", "SI Host cell potency/L. donovani potency": 2.5},
      {"smiles": "COc1ccccc1N1C(=O)c2[nH]nc(CC(C)C)c2C1c1ccccc1Br", "note": "(stereo not shown) [CMLD011112]", "SI Host cell potency/L. donovani potency": 2.0},
      {"smiles": "COc1ccc(N2C(=O)c3[nH]nc(CC(C)C)c3C2c2ccc(F)cc2)cn1", "note": "(stereo not shown) [BUCMD00808]", "SI Host cell potency/L. donovani potency": ">5"},
      {"smiles": "COc1ccc(N2C(=O)c3[nH]nc(CC(C)C)c3C2c2cccs2)cc1", "note": "(stereo not shown) [CMLD011110]", "SI Host cell potency/L. donovani potency": ">6.3"},
      {"smiles": "COc1ccc(N2C(=O)c3[nH]nc(CC(C)C)c3C2c2cccc(OC)c2)cc1", "note": "(stereo not shown) [CMLD011088]", "SI Host cell potency/L. donovani potency": 5.0},
      {"smiles": "COC(=O)c1ccc(N2C(=O)c3[nH]nc(CC(C)C)c3C2C2CCCCC2)cc1", "note": "(stereo not shown) [CMLD011094]", "SI Host cell potency/L. donovani potency": ">1.25"},
      {"smiles": "COc1ccc(OC)c(N2C(=O)c3[nH]nc(CC(C)C)c3C2c2ccc(F)cc2)c1", "note": "(stereo not shown) [CMLD011040]", "SI Host cell potency/L. donovani potency": 2.0},
      {"smiles": "COc1ccc(N2C(=O)c3[nH]nc(CC(C)C)c3C2c2cccc(C(F)(F)F)c2)cc1", "note": "(stereo not shown) [CMLD007432]", "SI Host cell potency/L. donovani potency": 2.5},
      {"smiles": "COc1ccccc1N1C(=O)c2[nH]nc(CC(C)C)c2C1c1cccc(Cl)c1", "note": "(stereo not shown) [CMLD011134]", "SI Host cell potency/L. donovani potency": 2.0},
      {"smiles": "CC(C)Cc1n[nH]c2c1C(c1cccc(C(F)(F)F)c1)N(CCN1CCCC1)C2=O", "note": "(stereo not shown) [CMLD011126]", "SI Host cell potency/L. donovani potency": 2.0},
      {"smiles": "COc1ccc(N2C(=O)c3[nH]nc(CC(C)C)c3C2c2ccccc2Cl)c(OC)c1", "note": "(stereo not shown) [CMLD011103]", "SI Host cell potency/L. donovani potency": 2.0},
      {"smiles": "CC(C)Cc1n[nH]c2c1C(c1ccc(F)cc1)N(c1ccc(S(=O)(=O)N3CCCC3)cc1)C2=O", "note": "(stereo not shown) [CMLD011558]", "SI Host cell potency/L. donovani potency": "<1"},
      {"smiles": "COc1cncc(N2C(=O)c3[nH]nc(CC(C)C)c3C2c2ccc(F)cc2)c1", "note": "(stereo not shown) [CMLD010883]", "SI Host cell potency/L. donovani potency": ">1.5"},
      {"smiles": "COc1ccc(N2C(=O)c3[nH]nc(CC(C)C)c3C2c2ccccc2Cl)cc1", "note": "(stereo not shown) [CMLD010893]", "SI Host cell potency/L. donovani potency": 15.3},
      {"smiles": "COc1ccc(N2C(=O)c3[nH]nc(CC(C)C)c3C2c2cccc(F)c2)cc1", "note": "(stereo not shown) [CMLD010890]", "SI Host cell potency/L. donovani potency": 2.5},
      {"smiles": "COc1ccc(N2C(=O)c3[nH]nc(CC(C)C)c3C2c2ccccc2)cc1", "note": "(stereo not shown) [CMLD007427]", "SI Host cell potency/L. donovani potency": 9.9},
      {"smiles": "CC(C)Cc1n[nH]c2c1C(c1cccc(C(F)(F)F)c1)N(c1ccc(F)cc1)C2=O", "note": "(stereo not shown) [CMLD011119]", "SI Host cell potency/L. donovani potency": 10.0},
      {"smiles": "COc1ccc(N2C(=O)c3[nH]nc(CC(C)C)c3C2c2cccnc2OC)cc1", "note": "(stereo not shown) [CMLD0011576]", "SI Host cell potency/L. donovani potency": 0.4},
      {"smiles": "COc1ccc(N2C(=O)c3[nH]nc(CC(C)C)c3C2c2ccc(F)c(C(F)(F)F)c2)cc1", "note": "(stereo not shown) [BUCMD00802]", "SI Host cell potency/L. donovani potency": 5.0},
      {"smiles": "CC(C)Cc1n[nH]c2c1C(c1ccc(F)cc1)N(c1ccc(C(C)(C)C)cc1)C2=O", "note": "(stereo not shown) [BUCMD00816]", "SI Host cell potency/L. donovani potency": ">5"},
      {"smiles": "Cc1cc(F)ccc1C1c2c(CC(C)C)n[nH]c2C(=O)N1c1ccc(-n2ccnc2)cc1", "note": "(stereo not shown) [CMLD010926]", "SI Host cell potency/L. donovani potency": 20.0},
      {"smiles": "CC(C)Cc1n[nH]c2c1C(c1ccc(F)cc1)N(Cc1ccc(C(F)(F)F)cn1)C2=O", "note": "(stereo not shown) [CMLD010848]", "SI Host cell potency/L. donovani potency": ">1.25"},
      {"smiles": "COc1ccc(N2C(=O)c3[nH]nc(CC(C)C)c3[C@@H]2c2cccc(C(F)(F)F)c2)cn1", "note": "[BUCMD00805]", "SI Host cell potency/L. donovani potency": 5.0},
      {"smiles": "COc1ccc(N2C(=O)c3[nH]nc(CC(C)C)c3C2c2cc(C(F)(F)F)ccc2C(F)(F)F)cc1", "note": "(stereo not shown) [CMLD010996]", "SI Host cell potency/L. donovani potency": 4.0},
      {"smiles": "CC(C)Cc1n[nH]c2c1C(C1CCCCC1)N(c1ccc3c(c1)OCO3)C2=O", "note": "(stereo not shown) [CMLD011043]", "SI Host cell potency/L. donovani potency": 3.2},
      {"smiles": "COc1ccc(N2C(=O)c3[nH]nc(CC(C)C)c3C2c2cc(F)nc(F)c2)cc1", "note": "(stereo not shown) [CMLD011028]", "SI Host cell potency/L. donovani potency": 1.0},
      {"smiles": "COc1ccc(N2C(=O)c3[nH]nc(CC(C)C)c3C2c2cccc(C(F)(F)F)c2)cn1", "note": "(stereo not shown) [CMLD010898]", "SI Host cell potency/L. donovani potency": 10.0},
      {"smiles": "COc1ccccc1N1C(=O)c2[nH]nc(CC(C)C)c2C1c1ccccc1Cl", "note": "(stereo not shown) [CMLD011130]", "SI Host cell potency/L. donovani potency": 1.6},
      {"smiles": "CC(C)Cc1n[nH]c2c1C(c1cccc(C(F)(F)F)c1)N(c1ccc(C(C)(C)C)cc1)C2=O", "note": "(stereo not shown) [CMLD011122]", "SI Host cell potency/L. donovani potency": 1.6},
      {"smiles": "COc1ccc(N2C(=O)c3[nH]nc(CC(C)C)c3C2c2ccc(F)cc2)cc1", "note": "(stereo not shown) [CMLD007431]", "SI Host cell potency/L. donovani potency": ">8"},
      {"smiles": "C#CCn1nc(CC(C)C)c2c1C(=O)N(c1ccc(OC)cc1)C2c1ccc(F)cc1", "note": "(stereo not shown) [CMLD010987]", "SI Host cell potency/L. donovani potency": 12.6}
    ]}
  ]
}
